Measured values from several laboratories, pooled; numbers as filed in NIAID ChemDB.

Common to all: cytotoxicity tests; cell line: VERO; measure: CC50

An empty or dashed field is not shown.

| structure | method | result |
|---|---|---|
| COc1c(CO)c(C)c(CC(C)OC(C)=O)c2[nH]c3ccc(C(=O)CC4=C(C)CC(C)(C)CC4)cc3c12 |  | >128 µM |
| Cc1ccc(O)c(O)c1 |  | 11.3 µg/mL |
| c1ccc(Nc2c3ccccc3nc3oc4ccccc4c23)cc1 | MTT | 6.14 µg/mL |
| CCn1cc(C(=O)NC)c(=O)c2ccc(-c3ccncc3)cc21 |  | >25 µg/mL |
| CCCCNC(=S)NNC(=O)c1ccncc1 |  | >62.5 µg/mL |
| O=C(NC(=O)N1CCOCC1)C1N=C(c2ccccc2)c2ccccc2NC1=O |  | 5 µM |
| Cc1ccc2c(c1)[nH]c1ccccc12 |  | >128 µM |
| Cc1cccc(C)c1Nc1nc(-c2ccn[nH]2)cs1 | luminescence | 44 µM |
| Cc1cccc2c1OP(=O)(OC[C@H]1O[C@@H](n3cc(/C=C/Br)c(=O)[nH]c3=O)C[C@@H]1OC(=O)[C@@H](C)N)OC2 |  | 90 µg/mL |
| Cc1ccc(NCCNCC(C)(C)O)c2c(=O)c3ccccc3sc12 |  | 3.8 µg/mL |
| CC(=O)CCC(=O)O[C@H]1C[C@H](n2cc(/C=C/Br)c(=O)[nH]c2=O)O[C@@H]1COP1(=O)OCc2cccc(C)c2O1 |  | 72.7 µg/mL |
| O=C(Cc1ccc(C(F)(F)F)cc1)NC1N=C(c2ccccc2)c2ccccc2NC1=O |  | 1.5 µM |
| COc1ccc(/C(C)=N/NC(=O)c2ccncc2)c(OC)c1 |  | >10 µg/mL |
| Cc1c(CC(=O)O)ccc(O)c1O |  | >128 µg/mL |
| CC(C)(C)OC(=O)N1[C@@H]2CC(Nc3ncnc(Cl)c3N)[C@H]1c1ccccc12 | MTS | >112 µM |
| O=C(NC(=O)C1N=C(c2ccccc2)c2ccccc2NC1=O)c1cc2ccccc2s1 |  | 5 µM |
| CC(/C=N/NC(=S)SCc1ccccc1)=N\NC(N)=S |  | 12.5 µg/mL |
| Cc1cccc2c1OP(=O)(OC[C@H]1O[C@@H](n3cc(/C=C/Br)c(=O)[nH]c3=O)C[C@@H]1OC(=O)[C@H](C)N)OC2 |  | 74.1 µg/mL |
| COC1c2c(ccc3c2OCO3)-c2ccc3cc4c(cc3c2N1C)OCO4 | sulforhodamine | >3.63 µg/mL |
| CO[C@@]12[C@H](COC(N)=O)C3=C(C(=O)C(C)=C(N)C3=O)N1C[C@H]1[C@@H]2N1C(=O)c1ccc(Cl)c(Cl)c1 |  | 1.9 µg/mL |
| CCc1ccc2c(c1)[nH]c1ccc(C=O)cc12 |  | 116 µM |
| CCN(CC)CC[n+]1ccc2c(C)c3[nH]c4ccc(O)cc4c3c(C)c2c1 |  | 2.41 µg/mL |
| CO[C@H]1/C=C/O[C@@]2(C)Oc3c(C)c(O)c4c(O)c(c(/C=N/N5CCN(C)CC5)c(O)c4c3C2=O)NC(=O)/C(C)=C\C=C\[C@H](C)[C@H](O)[C@@H](C)[C@@H](O)[C@@H](C)[C@H](OC(C)=O)[C@@H]1C | MTT | 100 µg/mL |
| CCn1cc2c(=O)onc-2c2ccc(-c3ccncc3)cc21 |  | >100 µg/mL |
| Cn1cc(NC(=O)c2cc(NC(=O)Nc3cc(C(=O)Nc4cc(C(=O)NCCC(N)=[NH2+])n(C)c4)n(C)c3)cn2C)cc1C(=O)NCCC(N)=[NH2+] |  | 130 µg/mL |
| CCCCCc1ccc(-c2cc3cn(CC=C(CO)CO)c(=O)nc3o2)cc1 |  | 8.7 µM |
| N=C(N)N=C1/C(=C/c2ccco2)CNC/C1=C\c1ccco1 | MTT | 388 µg/mL |
| Cc1cccc(C)c1Nc1nc(-c2ccccn2)cs1 | luminescence | 7 µM |
| CCn1cc2c(=O)n(C)nc-2c2ccc(-c3ccncc3)cc21 |  | >3.1 µg/mL |
| c1ccc(-c2nc(N=C3N=c4ccccc4=N3)[nH]c2-c2ccccn2)nc1 |  | 2.2 µg/mL |
| CCn1cc(C(N)=O)c(=O)c2ccc(I)cc21 |  | >100 µg/mL |
| CCCCCc1ccc(C#Cc2cn(C/C=C/C(O)CO)c(=O)[nH]c2=O)cc1 |  | 75.1 µM |
| Cc1c2ccncc2c(C)c2c1[nH]c1ccccc12 | sulforhodamine | 0.093 µg/mL |
| FC(F)(F)c1ccccc1Nc1nc(-c2ccccc2)cs1 | luminescence | 14 µM |
| c1cc2c(cnc3c4cc5c(cc4ccc23)OCO5)c2c1OCO2 | sulforhodamine | >0.32 µM |
| NC(=S)N=C1/C(=C/c2ccco2)CNC/C1=C\c1ccco1 | MTT | 500 µg/mL |
| O=C([O-])C(F)(F)F.O=C([O-])C(F)(F)F.c1nc([NH2+]C2CC2)c2ncn(C3C[C@H]4CC[C@@H]3[NH2+]4)c2n1 | MTS | >100 µM |
| CCCC[N+](CCCC)=c1ccc2nc3c(C)cc(N(CC)CC)cc3sc-2c1 |  | <0.26 µg/mL |
| CCCCCCCCC#Cc1cn(CC=C(CO)CO)c(=O)[nH]c1=O |  | 28.8 µM |
| C/C=C/C=N/N(c1nnc(-c2ccccc2)c(-c2ccccc2)n1)S(=O)(=O)c1ccc(C)cc1 |  | 2.4 µg/mL |
| O=C(CO)Nc1nc(-c2ccccn2)cs1 | luminescence | >100 µM |
| CC(=O)c1cn(C/C=C/C(O)CO)c(=O)[nH]c1=O |  | >100 µM |
| COc1ccc2c(c1)[nH]c1c3ccoc3c(C=O)cc21 |  | 27 µM |
| CNc1c2ccccc2nc2oc3ccccc3c12 | MTT | 5.55 µg/mL |
| COc1ccc(-n2cc(C(N)=O)c(=O)c3ccc(-c4ccncc4)cc32)cc1 |  | >25 µg/mL |
| COC1=C(C)C(C)(O)c2[nH]c3ccc(OC)cc3c2C1=O |  | >128 µM |
| CSC(=S)NN=C(C)C |  | 10.93 µg/mL |
| Fc1cccc(F)c1Nc1nc(-c2ccccn2)cs1 | luminescence | 4 µM |
| CCN(CC)CC(O)CNc1ccc(NCC2CO2)c2c1C(=O)c1ccccc1C2=O |  | 0.28 µg/mL |
| Clc1ccc(N=C2/C(=C/c3ccco3)CNC/C2=C\c2ccco2)c(Cl)c1 | MTT | 226 µg/mL |
| C[P+]1(C)CCc2c1ccc1ccccc21 |  | >62.5 µg/mL |
| C=Cc1ccc2c(c1)[nH]c1ccccc12 |  | >128 µM |
| COC(=O)C(=O)C(C(=O)C1=NS(=O)(O)=c2cc(S(N)(=O)=O)c(Cl)cc2=N1)c1nc2ccc(C(=O)c3ccccc3)cc2[nH]c1=O |  | 35.9 µg/mL |
| COc1ccccc1C(=O)NC1N=C(c2ccccc2)c2cc(Cl)ccc2NC1=O |  | 0.7 µM |
| C/C(=N\NC(=O)c1ccncc1)c1cccc(F)c1 |  | >62.5 µg/mL |
| CC(C)(C)OC(=O)N1[C@@H]2CC(n3cnc4c(Cl)ncnc43)[C@H]1c1ccccc12 | MTS | 12 µM |
| O=C1c2ccccc2C(=O)c2sc(Nc3cc(Cl)ccc3Cl)nc21 |  | 4 µg/mL |
| CC(=O)CCC(=O)O[C@H]1C[C@H](n2cc(/C=C/Br)c(=O)[nH]c2=O)O[C@@H]1COP1(=O)OCc2ccccc2O1 |  | >128 µg/mL |
| O=C1C=C(Nc2ccccc2N=C2C(N3C4=CCc5ccccc5C4=Nc4ccccc43)=CC(=O)c3ccccc32)C(=O)c2ccccc21 |  | >62.5 µg/mL |
| COc1ccc2c3c([nH]c2c1)C(C)=NCC3 | MTT | 30 µg/mL |
| COc1ccc2c(C)cc(N/N=C/c3cccc(C)n3)nc2c1 |  | 4.92 µg/mL |
| COc1ccc(N=C2/C(=C/c3ccco3)CNC/C2=C\c2ccco2)cc1 | MTT | 204 µg/mL |
| Cc1ccnc2c1ccc1c(C)ccnc12 |  | <2.06 µg/mL |
| NC(=O)c1cn(-c2ccccc2)c2cc(-c3ccncc3)ccc2c1=O |  | >6.25 µg/mL |
| CN(C)CCNc1cccc2sc3ccc(O)cc3c(=O)c12 |  | 3.5 µg/mL |
| CC(C)(C)OC(=O)N1C[C@H]2C[C@@H]1CC2n1cnc2c(N)ncnc21 | MTS | >151 µM |

CCn is the concentration with n% toxicity to the cells. Neighbouring rows are from separate reports.